Test results taken from patent US7968297B2, “Method for identification, isolation and production of antigens to a specific pathogen” (Intercell AG, priority 2001, dated 2011).

B1: 0RF0288 (protein, listed as Staphylococcus epidermidis)
chain: MIEHLGINTPYFGILVSLIPFVIATYFYKKTNGFFLLAPLFVSMVAGIAFLKLTGISYENYKIGGDIINFFLEPATICFAIPLYRKREVLKKYWLQIFGGIAVGTIIALLLIYLVAITFQFGNQIIASMLPQAATTAIALPVSDGIGGVKELTSLAVILNAVVISALGAKIVKLFKISNPIARGLALGTSGHTLGVAAAKELGETEESMGSIAVVIVGVIVVAVVPILAPILL
B2: ORF0346 (protein, listed as Staphylococcus epidermidis)
chain: MKNKKGLGIGLITIMIIVCIVLVIMMFVGGKKESYYGIMKDSTTIDKMINTKNEKIEKNVELPKDANVSVKKEDFVMLFKDEKTGKITKVKKVNHDDVPHGLMSKIHDMGNMKHGM
B3: ORF0340 (protein, listed as Staphylococcus epidermidis)
chain: MAVKVAINGFGRIGRLAFRRIQEVEGLEVVAVNDLTDDDMLAHLLKYDTMQGRFTGEVEVVDGGFRVNGKEVKSFSEPDASKLPWKDLNIDVVLECTGFYTDKDKAQAHIEAGAKKVLISAPATGDLKTIVFNTNHQELDGSETVVSGASCTTNSLAPVAKVLNDDFGLVEGLMTTIHAYTGDQNTQDAPHRKGDKRRARAAAENIIPNSTGAAKAIGKVIPEIDGKLDGGAQRVPVATGSLTELTVVLEKQDVTVEQVNEAMKNASNESFGYTEDEIVSSDVVGMTYGSLFDATQTRVMSVGDRQLVKVAAWYDNEMSYTAQLVRTLAYLAELSK
B4: ORF1849 (protein, listed as Staphylococcus epidermidis)
chain: LKRNFINNLIILLIAIMLSLLLKMLHVILPFMFGPILAALLCVKVLKLKIRWPFWLSQIGLILLGVQIGSTFTQQVIKDISKNWLTIVFVTILLILLALIIAFFFKKIAQVNLETAILSVIPGALSQMLVMAEENKKANILVVSLTQTSRVIFVVILVPLISYFFQDNHHEMNHTTMEVPTLSQTLNIWQIIILFSMVGIIYIGMSKINFPTKQLLAPIIVLIIWNMTTHLTFSLDHWLLATAQLIYMIRIGLQIANLMSDLKGRIAIAIAFQNIMLIVTTFIMIIGIHLITNESINELFLGAAPGGMSQIVLVAMATGADVAMISSYHIFRIFFILFVIAPLIGYFINVKLNNK
B5: ORF2376 (protein, listed as Staphylococcus epidermidis)
chain: MNKKVEHIGNQYTSQENKKKQRQKMKMRVVRRRIALFGGILLAIILILLVLLVIQRHNNDQDAVERKEKETEFQKQQDEEIALKEKLNNLNDKDYIEKIARDDYYLSNKGEVIFRLPDDKKSSQSKTSNEKGN
B6: CRF0004 (protein)
chain: TANNIISFIITLTNIYKTKLMGYFFNIIELRNKFIRRCWAILFIAIIHFISECFLPHIPTNCYVSRFDFLDSAKNMSYKTLNTICRNSFRIVHKLIV
B7: ORF0304 (protein, listed as Staphylococcus epidermidis)
chain: MKRTDKYRDSYKYDDQYQNHRKRSEEDMYRQHQESQQRANSNRATQSENDREYENHPERYYNGRDYRREQQLEEENEKSSKTKKWLIAIIVILLIIVAIFITRAIINHNNDKVSNDPNVSQNYKKEVENQNDDINRQVDSAKSDIKNKKDTQSQIDKLQNQIDQLKQNEETNADSKFTKFYQNQIDKLKNANNAQLNNENQSKVNNMLEDINTKFDSIKAKLENILNGSNSGN
B8: ORF1333 (protein, listed as Staphylococcus epidermidis)
chain: MNTIVKHTVGFIASIVLTLLAVFVTLYTNMTFHAKVTIIFGFAFIQAALQLLMFMHLTEGKDGRLQSFKVIFAIIITLVTVIGTYWVMQGGHSSHL
B9: CRF0002 (protein)
chain: SSVFAIRLTITFSRFSNVGCKKHIKGAIIMKKEIIEWIVAIIVAIVIVTLVQKFLFASYTVKGASNVIYH
B10: ORF1230 (protein, listed as Staphylococcus epidermidis)
chain: LKKEILEWIVAIAVAIALIAIITKFVGKSYSIKGDSMDPTLKDGERVVVNIIGYKLGGVEKGNVIVFHANKKDDYVKRVIGTPGDSVEYKNDTLYVNGKKQSEPYLNYNEKRKQTEYITGSFKTKNLPNANPQSNVIPKGKYLVLGDNREVSKDSRSFGLIDKDQIVGKVSLRYWPFSEFKSNFNPNNTKN
B11: ORF1356 (protein, listed as Staphylococcus epidermidis)
chain: MSFLRKHTEIIFSYIIGIVSLFTGLIIFINLPLIKQFKGDKKVDTHVHNVWEFLNAFFAEIIKVMSKFIGGFPITSAIVIIVFGILVMLLGHTLFRTIKYDYDISIFFLVIGIMYFIITLLLMTQVYGFFAIVFIIPFTVHIGYIVYKDELNQDNRKNHYMWIIVTYGMSYLITQISLYGRIDANEIESIDILSVNTFFIIMWLLGQMAIWNFLFLRRSLPLTKEELGEEEPELSRTNKGNVSNQTKVHLKQLQNKTTEYARKTRRSVDLDKIRAKRDKFKQKINSIVDIQEDDIPNWMKKPKWVKPMYVQLFCGVIILFFAFLEFNNRNALFLTGEWELSQTQYVVEWVTLLLLLFIIIIYIATTLTYYLRDKYYYLQLFMGSILFFKFLTEFINIMVHGLLLSIFITPILLLMLIAMIVAYSLQLREK
B12: ORF0356 (protein, listed as Staphylococcus epidermidis)
chain: MAMSLLVSLVVYMMTLTSDILEDILSFKLEVIMQFPYILSSISLIILFILFILKDMEKIWYWLISIVMIAVISMSGHVWSQQVPLWSIIIRTIHLIGLTLWLGSLVYLICYAIKVKINQLTSVRRMLLKVNIIAVIMLVFTGILMAIDETNTLTLWNNVSAWSIYLVIKIAGIIAMMLLGFYQTMRALRQRQQVHRFALMTELLIGMILILQVS
B13: ORF1284 (protein, listed as Staphylococcus epidermidis)
chain: MFNKVWFRTGIFFIMLFILIKLFMEVHEVFAPIATIIGSVFLPFLISGFLFYICLPFQNILEKWGFPRWASITTIFIGLIAIIAIVVSFIAPIIISNINNLIKQTPSLQKEAEQLINFSLRQMDKLPDDVTHRINKAVKSMGDGATSILSNSVSYITSFISTVFLLIMVPFFLIYMLKDHEKFIPAIGKFFKGERKVFVVDLLKDLNFTLKSYIQGQVTVSIILGIILYIGYTIIGLPYTPLLVLFAGVANLIPFLGPWLSFAPAAILGIIDGPSTFIWVCVVTLIAQQLEGNVITPNVMGKSLSIHPLTIIVVILAAGDLGGFTLILVAVPLYAVIKTLVSNIFKYRQRIVDKANSNVKD
B14: ORF1381 (protein, listed as Staphylococcus epidermidis)
chain: MLGEQYTQIKRPANRLTEKILGWFSWVFLLILTIVSMFIALVSFSNDTSIANLENTLNNNELVQQILANNDLSTTQFVIWLQNGVWAIIVYFIVCLLISFLALISMNIRILSGLLFLIAAIVTIPLVLLIVTLIIPILFFIIAMMMFARRDRIETVPSYYNEYDQPYYDERGFYEPESRNEHGYNDDVYEPMHTKKEDRNTRRQFNRNAQQQDSYNGITDNQPDEDTSSDQLYSDEYVDNEDKYSQFPKRAVESEYASQQTEDEPTVMSRQAKYNKKSKNTDFEDAQQEHMEGNQFDDVGVVEPQIDPKELKAQRKREKAEIRAKKKEKRKAYNKRMKERRKNQPSAVNQRRMNYEERRQMINNEQEDTDNNLNQQEDSKKEN
B15: ORF2200 (protein, listed as Staphylococcus epidermidis)
chain: MLDFINHLLSYQFLNRALITSILVGIVCGTMGSIIVLRGLSLMGDAMSHAVLPGVALSFLFNIPMFIGALVTGMLASLFIGFITSNSKTKPDAAIGISFTAFLASGVIIISLINSTTDLYHILFGNLLAITHQSFWTTIVITVLVILLIIIFYRPLMISTFDATFSRMSGLNTTLIHYFVMLLLALVTVASIQTVGIILVVALLITPASTAFLISKQLYAMMVIASIISVISSIIGLYFSYIYNIPSGATIVICTFMIYIVTLSITRIKNKQKRSALT
B16: ORF2040 (protein, listed as Staphylococcus epidermidis)
chain: VSNNNFKDDFEKNRQSINPDEHQTELKEDDKTNENKKEADSQNSLSNNSNQQFPPRNAQRRKRRRETATNQSKQQDDKHQKNSDAKTTEGSLDDRYDEAQLQQQHDKSQQQNKTEKQSQDNRMKDGKDAAIVNGTSESPEHKSKSTQNRPGPKAQQQKRKSESTQSKPSTNKDKKAATGAGIAGAAGVAGAAETSKRHHNKKDKQDSKHSNHENDEKSVKNDDQKQSKKGKKAAVGAGAAAGVGAAGVAHHNNQNKHHNEEKNSNQNNQYNDQSEGKKKGGFMKILLPLIAAILILGAIAIFGGMALNNHNDSKSDDQKIANQSKKDSDKKDGAQSEDNKDKKSDSNKDKKSDSDKNADDDSDNSSSNPNATSTNNNDNVANNNSNYTNQNQQDNANQNSNNQQATQGQQSHTVYGQENLYRIAIQYYGEGTQANVDKIKRANGLSSNNIHNGQTLVIPQ
B17: ORF0406 (protein, listed as Staphylococcus epidermidis)
chain: MKNSRFSGFQWAMMVFVFFVITMALSVILRDFQATIGVKRFVFSIKDLAPFIAAIVCILVFKHRKEQLAGLKFSISLKVIERLLLALILPLIILMIGLFSFNTYADSFILLQTSDLSVSLLTILIGHILMAFVVEFGFRSYLQNILETRMNTFFASIVVGLIYSVFTANTTYGVEYAGYHFLYTFMFSMIIGELIRATNGRTIYIATAFHASMTFALVFLFSEETGDLFSMKVIALSTTIVGVSFIIISLIIRAIVYKTTKQSLDEVDPNNYLSHIQDEEPSQEDASSTSNHDVSSKDETKQQDIDNDKHQSKKPNKSDDALTTSNYKEDASSVNKETDTTHNDNIKDHSTYTEDRHSSVVNDVKDEIHEVEDHKADTDKSH

Each molecule was assayed on purified IgGs from human sera (assay: Ribosome display screening with purified human IgGs). Conditions: ORFs selected by ribosome display only (screen D).
Assay type: binding

| Molecule | Location of identified Immunogenic region |
| --- | --- |
| B1 | aa 112-149 |
| B2 | aa 1-29 |
| B3 | aa 238-309 |
| B4 | aa 254-301 |
| B5 | aa 15-58 |
| B6 | aa 31-72 |
| B7 | aa 69-117 |
| B8 | aa 3-93 |
| B9 | aa 21-70 |
| B10 | aa 1-53 |
| B11 | aa 54-95 |
| B12 | aa 51-91 |
| B13 | aa 55-106 |
| B14 | aa 7-44 |
| B15 | aa 162-225 |
| B16 | aa 259-331 |

Same assay, conditions: Ribosome display: D, LSE150 in pMAL4.31 with P2 (1235)

| Molecule | No. of selected clones per ORF and screen: D |
| --- | --- |
| B1 | D: 4 |
| B2 | D: 8 |
| B3 | D: 5 |
| B4 | D: 5 |
| B5 | D: 7 |
| B6 | D: 4 |
| B7 | D: 8 |
| B17 | D: 19 |
| B8 | D: 4 |
| B9 | D: 5 |
| B10 | D: 14 |
| B11 | D: 32 |
| B12 | D: 5 |
| B13 | D: 27 |
| B14 | D: 5 |
| B15 | D: 19 |
| B16 | D: 23 |
